Compound potency records, mixed from different reports. Data source: NIAID ChemDB in PubChem.

Shared fields: target-level tests; species: HIV-1; protein: Reverse transcriptase; read-out: IC50

ICn: concentration for n% inhibition.

structure,mutations,read by,strain or isolate,value
CCc1ccc(-n2c(CF)nnc2SCC(=O)Nc2ccc(S(=O)(=O)NC)cc2Cl)c2ccccc12,RT-Y181C,nucleotide incorporation / radiometric,,<0.05 µM
Cc1ccc(-n2nnnc2SCC(=O)Nc2ccc(-c3cscn3)cc2Cl)c(Cl)c1,,PicoGreen / fluorescence,WT,<1 µM
CCOC(=O)CNC(=O)c1ccc(NC(=O)CSc2nnc(Br)n2-c2ccc(C3CC3)c3ccccc23)c(Cl)c1,RT-Y181C,nucleotide incorporation / radiometric,,0.05–0.1 µM
CCN1c2ncc(CCc3ccnc(C(=O)OC)c3)cc2C(=O)N(C)c2ccc(Cl)nc21,RT-Y181C,nucleotide incorporation / radiometric,,<1 µM
CCN1c2ncc(CCOc3ccc(CC(=O)O)c4c3CCCC4)cc2C(=O)N(C)c2ccc(F)nc21,RT-Y188L,nucleotide incorporation / radiometric,,>1 µM
N#Cc1cc(Cl)cc(Oc2cc(Cl)cc(OCC(=O)Nc3ccc(C(N)=O)cc3Cl)c2)c1,,nucleotide incorporation / radiometric,,<20 µM
CCN1c2ncccc2C(=O)N(C)c2ccc(-c3ccn[nH]3)nc21,RT-Y188L,nucleotide incorporation / radiometric,,>1 µM
Cc1cc(C)cc(S(=O)(=O)c2c(C(=O)NC(C)CC(N)=O)[nH]c3ccc(Cl)cc23)c1,WT,RT activity,,0.49 µM
Cc1cc(S(N)(=O)=O)ccc1NC(=O)CSc1nnc(Br)n1-c1ccc(F)c2ccccc12,,nucleotide incorporation / radiometric,,<0.05 µM
COC(=O)C(C)(C)C#Cc1ccc(NC(=O)CSc2nnnn2-c2cc(C(F)(F)F)ccc2Cl)c(Cl)c1,RT-K103 Y181C,PicoGreen / fluorescence,,<1 µM
NS(=O)(=O)c1ccc(NC(=O)CSc2nnc(Br)n2-c2ccc(C3CC3)cc2OC(F)(F)F)c(Cl)c1,,nucleotide incorporation / radiometric,,<0.05 µM
CCN1c2ncccc2C(=O)N(C)c2ccc(-c3cccn3C(C)=O)nc21,,nucleotide incorporation / radiometric,WT,<1 µM
N#Cc1cc(Cl)cc(Oc2cc(OCc3cn(-c4ccccc4)nn3)ccc2Cl)c1,,nucleotide incorporation / radiometric,,<20 µM
CN1C(=O)c2cccnc2N(C2CC2)c2nc(-c3cn[nH]c3)ccc21,RT-Y181C,nucleotide incorporation / radiometric,,<1 µM
CS(=O)(=O)c1ccc2c(c1)CCN2C(=O)COc1cc(Cl)cc(Oc2cc(Cl)cc(C#N)c2)c1,,nucleotide incorporation / radiometric,,<20 µM
Cc1cc(S(N)(=O)=O)ccc1NC(=O)C(C)Sc1nnc(Br)n1-c1c(C)ccc2ccccc12,,nucleotide incorporation / radiometric,,<0.05 µM
Cn1c(COc2ccc(Cl)c(Oc3cc(Cl)cc(C#N)c3)c2)nc2ccccc21,,nucleotide incorporation / radiometric,,<20 µM
Cc1ccc(-n2c(SCC(=O)Nc3ccc(S(=O)(=O)NCCC(=O)O)cc3Cl)nnc2C(F)F)c2c1CCCC2,RT-Y188L,nucleotide incorporation / radiometric,,>0.1 µM
CCN1c2ncc(CCOc3ccc(C(=O)O)c4c3CCN(C(=O)N(C)C)C4)cc2C(=O)N(C)c2cccnc21,RT-V106A,nucleotide incorporation / radiometric,,0.1–1 µM
CCN1c2ncccc2C(=O)N(C)c2ccc(-c3cc[nH]c3)nc21,RT-Y181C,nucleotide incorporation / radiometric,,<1 µM
CCc1ccc(-n2c(Br)nnc2SCC(=O)Nc2ccc(C(=O)NCCO)cc2Cl)c2ccccc12,RT-Y181C,nucleotide incorporation / radiometric,,<0.05 µM
CC(C)(C#Cc1ccc(NC(=O)CSc2nnnn2-c2cc(C(F)(F)F)ccc2Cl)c(Cl)c1)NC(=O)c1cc[n+]([O-])cc1,RT-K103 Y181C,PicoGreen / fluorescence,,<1 µM
CCN1c2nc(Cl)ccc2NC(=O)c2cc(CCc3ccncc3)cnc21,,nucleotide incorporation / radiometric,WT,<1 µM
CC(C)(C#Cc1ccc(NC(=O)CSc2nnnn2-c2ccc(C3CC3)cc2Cl)c(Cl)c1)NC(=O)N1CCNCC1,RT-K103 Y181C,PicoGreen / fluorescence,,<1 µM
CCN1c2ncc(CCOc3ccc(/C=C(\C)C(=O)O)c4ccccc34)cc2C(=O)Nc2c(C)cc(Cl)nc21,RT-Y188L,nucleotide incorporation / radiometric,,>1 µM
CC(C)(C#Cc1ccc(NC(=O)CSc2nnnn2-c2cc(C(F)(F)F)ccc2Cl)c(Cl)c1)OCCN1CCCC1,,PicoGreen / fluorescence,WT,<1 µM
CCN1c2ncc(CCc3ccncc3)cc2C(=O)N(C)c2ccc(=O)[nH]c21,,nucleotide incorporation / radiometric,WT,>1 µM
COC(=O)/C=C\c1c(-c2cccs2)[nH]c2ccccc12,,RT activity,,0.00409 µM
Nc1ccn([C@H]2CC[C@@H](COP(=O)(O)OP(=O)(O)OP(=O)(O)O)O2)c(=O)n1,RT-V75I,nucleotide incorporation / radiometric,,1.4 µM
CCN1c2ncc(CCc3cccc4[nH]cc(SC)c34)cc2C(=O)N(C)c2ccc(Cl)nc21,,nucleotide incorporation / radiometric,WT,>1 µM
CCN1c2ncccc2C(=O)N(C)c2ccc(-c3cn[nH]c3)nc21,RT-Y181C,nucleotide incorporation / radiometric,,<1 µM
Cc1ccc2c(C)cc(C)c(-n3c(SCC(=O)Nc4ccc(S(N)(=O)=O)cc4Cl)nnc3C(F)F)c2n1,RT-Y188L,nucleotide incorporation / radiometric,,>0.1 µM
Cc1ccc(-n2nnnc2SCC(=O)Nc2ccc(-c3ccc(OCC(=O)O)cc3)cc2Cl)c(Cl)c1,RT-K103 Y181C,PicoGreen / fluorescence,,<1 µM
COP(=O)(OC)C(O)c1c(-c2cccs2)[nH]c2ccccc12,,RT activity,,0.0249 µM
O=C(CSc1nnc(Br)n1-c1ccc(C2CC2)cc1C(F)(F)F)Nc1ccc(C(=O)O)cc1Cl,RT-Y181C,nucleotide incorporation / radiometric,,0.05–0.1 µM
CCN1c2ncccc2C(=O)N(C)c2ccc(-c3c[nH]c4ccccc34)nc21,RT-Y181C,nucleotide incorporation / radiometric,,<1 µM
CC(C)(C#Cc1ccc(NC(=O)CSc2nnnn2-c2ccc(C3CC3)cc2Cl)c(Cl)c1)OCCOc1ccncc1,RT-K103 Y181C,PicoGreen / fluorescence,,<1 µM
CCn1c(=O)c(C)cn([C@@H]2O[C@H](CO[Si](C)(C)C(C)(C)C)C3(OS(=O)(=O)C=C3N)[C@H]2O[Si](C)(C)C(C)(C)C)c1=O,,,,0.7 µM
CCN1c2ncc(CCOc3ccc(CC(C)C(=O)O)c4ccccc34)cc2C(=O)N(C)c2ccc(C)nc21,,nucleotide incorporation / radiometric,WT,<0.1 µM
Cc1cc(S(N)(=O)=O)ccc1NC(=O)CSc1nnc(CF)n1-c1ccc(C)c2c1CCCC2,,nucleotide incorporation / radiometric,,<0.05 µM
CC(C)(C)c1ccc(-n2nnnc2SCC(=O)Nc2ccc(NC(=O)Cc3ccccc3C(F)(F)F)cc2Cl)c(Cl)c1,RT-K103 Y181C,PicoGreen / fluorescence,,<1 µM
COc1ccc2cccc(-n3c(Br)nnc3SCC(=O)Nc3ccc(C(=O)O)cc3Cl)c2c1,RT-Y181C,nucleotide incorporation / radiometric,,<0.05 µM
CCN1c2ncccc2C(=O)N(C)c2ccc(-c3cnn(C(C)=O)c3)nc21,RT-Y181C,nucleotide incorporation / radiometric,,<1 µM
CC(C)(C#Cc1ccc(NC(=O)CSc2nnnn2-c2ccc(C3CC3)cc2Cl)c(Cl)c1)NC(=O)CN=c1ccn(O)cc1,,PicoGreen / fluorescence,WT,<1 µM
CC[C@H](C)[C@H](NC(=O)c1ccc(NC(=O)CSc2nnc(Br)n2-c2ccc(C3CC3)c3ccccc23)c(Cl)c1)C(=O)O,RT-Y181C,nucleotide incorporation / radiometric,,0.05–0.1 µM
CC(C)c1cc(Cl)c(-n2nnnc2SCC(=O)Nc2ccc(-c3ccc(CC(=O)O)cc3)cc2Cl)c(C(F)(F)F)c1,RT-K103 Y181C,PicoGreen / fluorescence,,<1 µM
NS(=O)(=O)c1ccc(NC(=O)CSc2nnc(Br)n2-c2ccc(C3CC3)cc2)c(Cl)c1,,nucleotide incorporation / radiometric,,<0.05 µM
CC(C)(C)c1ccc(-n2nnnc2SCC(=O)Nc2ccc(-c3ccc(OCCN4CCOCC4)cc3)cc2Cl)c(Cl)c1,RT-K103 Y181C,PicoGreen / fluorescence,,<1 µM
CCCN1c2ncccc2C(=O)N(C)c2ccc(-c3cn[nH]c3)nc21,,nucleotide incorporation / radiometric,WT,<1 µM
COc1ccc2c(C)ccc(-n3c(Br)nnc3SCC(=O)Nc3ccc(S(N)(=O)=O)cc3Br)c2c1,,nucleotide incorporation / radiometric,,<0.05 µM
Nc1nc2c(ncn2[C@H]2CC[C@@H](COP(=O)(O)OP(=O)(O)OP(=O)(O)O)O2)c(=O)[nH]1,RT-V75I,nucleotide incorporation / radiometric,,0.071 µM
C=CC#Cc1ccc(NC(=O)CSc2nnnn2-c2ccc(C3CC3)cc2Cl)c(Cl)c1,RT-K103 Y181C,PicoGreen / fluorescence,,<1 µM
Cc1cc(S(N)(=O)=O)ccc1NC(=O)COc1ccccc1C(=O)c1cc(Cl)cc(C#N)c1,,fluorescence,WT,0.0066 µM
Cc1cc(C)cc(S(=O)(=O)c2c(C(=O)NC(C)C(N)=O)[nH]c3ccc(Cl)cc23)c1,NNRTI-resistant (RT Y181I),RT activity,,2.211 µM
N#C/C=C/c1c(-c2cccs2)[nH]c2ccccc12,,RT activity,,0.00804 µM
CC(C)c1ccc(-n2nnnc2SCC(=O)Nc2ccc(C#CC(C)(C)C(=O)O)cc2Cl)c(Br)c1,,PicoGreen / fluorescence,WT,<1 µM
CC(C)=CCN1Cc2cccc3[nH]c(=S)n(c23)C[C@@H]1C,,radiometric,MN,6 µM
CC(C)(C#Cc1ccc(NC(=O)CSc2nnnn2-c2ccc(C3CC3)cc2Cl)c(Cl)c1)NC(=O)CN1CCNCC1,,PicoGreen / fluorescence,WT,<1 µM
CCCc1ccc(-n2c(Br)nnc2SCC(=O)Nc2ccc(S(N)(=O)=O)cc2Cl)c2ccccc12,RT-Y181C,nucleotide incorporation / radiometric,,<0.05 µM
CC(C)(C)c1ccc(-n2nnnc2SCC(=O)Nc2ccc(OCC(=O)NCc3ccco3)cc2Cl)c(Cl)c1,RT-K103 Y181C,PicoGreen / fluorescence,,<1 µM
NS(=O)(=O)c1ccc(NC(=O)CSc2nnc(Br)n2-c2ccc3c4c(cccc24)CC3)c(Cl)c1,,nucleotide incorporation / radiometric,,<0.05 µM
CC(C)(C#Cc1ccc(NC(=O)CSc2nnc(C(F)(F)F)n2-c2ccc(C3CC3)cc2Cl)c(Cl)c1)C(=O)O,RT-K103 Y181C,PicoGreen / fluorescence,,<1 µM
CCCCNC(=O)c1ccc(NC(=O)CSc2nnc(Br)n2-c2ccc(CC)c3ccccc23)c(Cl)c1,,nucleotide incorporation / radiometric,,0.05–0.1 µM
CC(C)(C)c1ccc(-n2nnnc2SCC(=O)Nc2ccc(NC(=O)Cc3c[nH]c4ccccc34)cc2Cl)c(Cl)c1,,PicoGreen / fluorescence,WT,<1 µM
CC(C)OP(=O)(OC(C)C)C(O)c1c(-c2cccs2)[nH]c2ccccc12,,RT activity,,0.00917 µM
CC(C)(C#Cc1ccc(NC(=O)CSc2nnnn2-c2cc(C(F)(F)F)ccc2Cl)c(Cl)c1F)NC(=O)c1cc[n+]([O-])cc1,RT-K103 Y181C,PicoGreen / fluorescence,,<1 µM
NS(=O)(=O)c1ccc(NC(=O)CSc2nnc(Br)n2-c2c(Cl)cc(C3CCC3)c3ccccc23)c(Cl)c1,RT-Y181C,nucleotide incorporation / radiometric,,<0.05 µM

8 of the rows above, restated:

structure | mutations | read by | strain or isolate | value
CC(C)(C#Cc1ccc(NC(=O)CSc2nnnn2-c2ccc(C3CC3)cc2Cl)c(Cl)c1)NC(=O)CN1CCNCC1 |  | PicoGreen / fluorescence | WT | <1 µM
CCN1c2ncc(CCOc3ccc(CC(=O)O)c4c3CCCC4)cc2C(=O)N(C)c2ccc(F)nc21 | RT-Y188L | nucleotide incorporation / radiometric |  | >1 µM
Cc1cc(S(N)(=O)=O)ccc1NC(=O)COc1ccccc1C(=O)c1cc(Cl)cc(C#N)c1 |  | fluorescence | WT | 0.0066 µM
CC(C)=CCN1Cc2cccc3[nH]c(=S)n(c23)C[C@@H]1C |  | radiometric | MN | 6 µM
CC(C)(C#Cc1ccc(NC(=O)CSc2nnnn2-c2cc(C(F)(F)F)ccc2Cl)c(Cl)c1)OCCN1CCCC1 |  | PicoGreen / fluorescence | WT | <1 µM
CC(C)(C#Cc1ccc(NC(=O)CSc2nnc(C(F)(F)F)n2-c2ccc(C3CC3)cc2Cl)c(Cl)c1)C(=O)O | RT-K103 Y181C | PicoGreen / fluorescence |  | <1 µM
CCc1ccc(-n2c(CF)nnc2SCC(=O)Nc2ccc(S(=O)(=O)NC)cc2Cl)c2ccccc12 | RT-Y181C | nucleotide incorporation / radiometric |  | <0.05 µM
CCN1c2ncccc2C(=O)N(C)c2ccc(-c3cnn(C(C)=O)c3)nc21 | RT-Y181C | nucleotide incorporation / radiometric |  | <1 µM

Lines come from different laboratories, so protocols vary. a–b is a range or a potency band. Blank or dashed fields: not listed here.